This is an account of results in PMC8481291 (Nature Communications, 2021).

Series [1] concerns the target tES–F116H(+) (Archaeoglobus fulgidus).
Series [2] addresses tES–F116H(+/–) (Archaeoglobus fulgidus).
Series [3] deals with the molecule itself.

Take Omp2a (from UniProt Q7CNU3 23-367): the stoichiometry N (Omp2a per tES shell) in series [1] and in series [2] was 1 throughout.

B1: Omp2a (natural protein)
chain: ADAIVAPEPEAVEYVRVCDAYGAGYFYIPGTETCLRVHGYVRYDVKGGDDVYSGTDRNGWDKGARFALMFNTNSETELGTLGTYTQLRFNYTSNNSRHDGQYGDFSDDRDVADGGVSTGTDLQFAYITLGGFKVGIDESEFHTFTGYLGDVINDDVVAAGSYRTGKIAYTFTGGNGFSAVIALEQGGEDVDNDYTIDGYMPHVVGGLKYAGGWGSIAGVVAYDSVIEEWATKVRGDVNITDRFSVWLQGAYSSAATPNQNYGQWGGDWAVWGGAKFIAPEKATFNLQAAHDDWGKTAVTANVAYQLVPGFTITPEVSYTKFGGEWKDTVAEDNAWGGIVRFQRSF
As for B1, the “stoichiometry N” value in series [3] is 3.
